# Vif 1203: effect of single changes on growth against APOBEC3G

Source: Langley et al. 2025, preprint (doi:10.1101/2025.10.20.683452), supplementary data.

Scanned stretch, residues 12 to 115 of Vif from HIV-1 1203 (a subtype B primary isolate):
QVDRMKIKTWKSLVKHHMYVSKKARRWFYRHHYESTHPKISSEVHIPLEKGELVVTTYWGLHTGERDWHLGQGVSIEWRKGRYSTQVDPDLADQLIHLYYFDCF

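A pool of vif mutants was passaged twice, 72 h each, on SupT1 cells that express APOBEC3G. Each of three replicates was sequenced after round two and set against the merged round-one pool. Changes do not touch integrase, since the pol overlap was removed.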

The score is log2 enrichment against the wild-type codon: higher is better tolerated, lower is depleted. A change reads original residue, position, new residue. The median of three replicates is given, with the replicates in brackets. Input reads are the counts in the merged round-one pool, before selection. Replicates agree only moderately (rank correlation about 0.4-0.65); scores from under about 50 input reads tend to be too high.

| substitution | input reads | median score |
|---|---|---|
| L24C | 193 | -1.24 (-0.52 / -2.31 / -1.24) |
| L24D | 1810 | -1.50 (-1.50 / -2.30 / -0.90) |
| L24E | 51 | -0.26 (-0.38 / 5.32 / -0.26) |
| L24F | 62 | 0.64 (0.64 / -0.68 / 3.46) |
| L24G | 406 | -0.23 (1.67 / -2.84 / -0.23) |
| L24Q | 32 | -1.48 (-2.04 / 4.95 / -1.48) |
| L24R | 300 | -2.26 (-2.74 / -2.26 / -1.63) |
| L24T | 562 | -2.13 (-2.61 / -2.13 / -1.96) |
| L24V | 195 | -1.94 (-3.89 / -1.94 / -1.13) |
| L24W | 374 | -2.51 (-2.51 / -2.57 / -1.83) |
| V25A | 18 | 2.28 (0.90 / 5.18 / 2.28) |
| V25C | 178 | 0.03 (0.03 / 1.99 / -0.99) |
| V25D | 46 | -1.64 (-1.81 / -1.64 / 0.12) |
| V25E | 610 | -2.07 (-2.42 / -2.07 / -1.74) |
| V25F | 197 | -1.83 (-1.83 / -4.47 / -1.27) |
| V25H | 23 | -1.40 (3.45 / -1.40 / -2.59) |
| K26C | 179 | -1.99 (-2.16 / -1.99 / -1.82) |
| K26E | 18 | -0.30 (-0.47 / -0.30 / 1.21) |
| K26I | 168 | 1.57 (1.57 / 2.28 / -0.91) |
| K26N | 528 | -0.77 (-1.06 / -0.77 / -0.26) |
| K26P | 1124 | -1.52 (-1.52 / -0.22 / -1.80) |
| K26Q | 25 | 2.50 (5.50 / -1.50 / 2.50) |
| K26S | 289 | -1.40 (-1.40 / 1.84 / -1.57) |
| H27D | 121 | -0.38 (-0.38 / -0.71 / -0.09) |
| H27I | 716 | 0.80 (1.07 / 0.37 / 0.80) |
| H27K | 246 | -1.45 (-2.62 / -1.16 / -1.45) |
| H27L | 295 | -2.24 (-2.26 / -2.24 / -1.48) |
| H27P | 107 | -2.85 (-3.01 / -2.85 / -1.31) |
| H27W | 203 | -2.88 (-3.44 / -2.64 / -2.88) |
| H27Y | 287 | -2.35 (-2.50 / -2.35 / -1.44) |
| H28C | 315 | 1.31 (-1.68 / 1.31 / 1.36) |
| H28E | 32 | 0.30 (0.30 / 5.04 / -0.23) |
| H28G | 102 | -1.89 (1.89 / -2.28 / -1.89) |
| H28L | 102 | -3.11 (-2.46 / -5.09 / -3.11) |
| H28R | 283 | -1.78 (-1.78 / -3.10 / -1.04) |
| H28S | 282 | -1.97 (-1.97 / -2.30 / -0.80) |
| M29F | 243 | -0.58 (-1.56 / 1.51 / -0.58) |
| M29I | 229 | -1.73 (-0.54 / -1.73 / -2.39) |
| M29K | 281 | -0.66 (0.87 / -1.59 / -0.66) |
| M29N | 896 | -0.05 (-0.05 / 1.11 / -1.44) |
| M29P | 342 | 0.03 (0.03 / -1.16 / 2.93) |
| M29R | 231 | -2.53 (-2.53 / -2.36 / -2.69) |
| M29W | 580 | -1.71 (-1.66 / -1.71 / -1.76) |
| Y30C | 169 | 1.55 (1.55 / 2.20 / -1.34) |
| Y30E | 601 | -1.65 (-1.65 / -2.53 / 0.74) |
| Y30F | 508 | -2.29 (-2.91 / -2.29 / -1.88) |
| Y30H | 147 | -2.82 (-2.60 / -2.82 / -2.91) |
| Y30I | 45 | -0.37 (-0.37 / -0.47 / 4.09) |
| Y30N | 164 | -2.33 (-3.60 / -2.33 / -1.48) |
| Y30P | 17 | -2.55 (-2.69 / -2.55 / -2.15) |
| Y30R | 546 | -1.39 (2.08 / -2.31 / -1.39) |
| Y30S | 335 | -1.89 (-2.56 / -1.69 / -1.89) |
| Y30W | 43 | 4.39 (4.47 / 4.39 / 1.06) |
| V31D | 1096 | -0.78 (-1.18 / 0.64 / -0.78) |
| V31H | 317 | -2.49 (-2.52 / -2.49 / -1.60) |
| V31I | 28 | -3.26 (-3.43 / -3.26 / 0.29) |
| V31K | 343 | -0.28 (-1.35 / 0.18 / -0.28) |
| V31N | 269 | -2.21 (-2.28 / -1.64 / -2.21) |
| V31P | 178 | -2.74 (-2.91 / -2.74 / -2.35) |
| V31R | 42 | 0.01 (4.47 / -2.25 / 0.01) |
| V31S | 1172 | -2.08 (-2.64 / -2.08 / -1.86) |
| S32G | 494 | -1.55 (-1.34 / -2.98 / -1.55) |
| K33A | 18 | 0.58 (5.49 / -1.03 / 0.58) |
| K33D | 55 | 3.03 (3.08 / -2.61 / 3.03) |
| K33E | 66 | -0.73 (-0.73 / 0.83 / -0.90) |
| K33G | 186 | -2.03 (-2.03 / -3.62 / -1.31) |
| K33H | 22 | 1.19 (0.10 / 5.43 / 1.19) |
| K33N | 24 | 0.18 (0.51 / 0.15 / 0.18) |
| K33Q | 1208 | -0.43 (-1.24 / -0.43 / -0.18) |
| K33R | 55 | 2.81 (2.81 / 4.73 / -0.35) |
| K33Y | 227 | -1.84 (-2.02 / -1.84 / 2.02) |
| K34A | 281 | -2.33 (-0.53 / -2.33 / -2.97) |
| K34E | 728 | -1.36 (-1.25 / -2.27 / -1.36) |
| K34F | 218 | 2.34 (-0.43 / 2.34 / 4.11) |
| K34G | 140 | -1.48 (-1.47 / -1.48 / -1.96) |
| K34L | 889 | -0.43 (1.78 / -0.96 / -0.43) |
| K34N | 1196 | -0.88 (-0.88 / -1.13 / -0.07) |
| K34P | 19 | -2.28 (1.88 / -2.72 / -2.28) |
| K34Q | 210 | -0.80 (-1.55 / -0.80 / -0.22) |
| K34R | 1398 | 0.51 (0.51 / 0.02 / 0.84) |
| K34S | 379 | -1.96 (-2.51 / -1.96 / -1.52) |
| K34T | 1038 | -1.79 (-2.04 / 0.43 / -1.79) |
| K34V | 698 | -2.42 (-2.42 / -3.03 / -1.95) |
| K34Y | 19 | -0.55 (-0.55 / -1.14 / 2.24) |
| A35D | 42 | -0.09 (-0.09 / -0.36 / 1.78) |
| A35G | 39 | -2.13 (-2.30 / -2.13 / -1.00) |
| A35P | 36 | -0.97 (-0.97 / -1.28 / -0.89) |
| R36D | 1185 | -0.08 (0.20 / -1.95 / -0.08) |
| R36H | 436 | -2.07 (-2.53 / -1.50 / -2.07) |
| R36K | 455 | -1.16 (-1.30 / 3.15 / -1.16) |
| R36L | 37 | -3.28 (-3.84 / -1.19 / -3.28) |
| R36S | 35 | 0.66 (-1.44 / 0.66 / 0.70) |
| R36V | 59 | 0.44 (-1.05 / 5.28 / 0.44) |
| R36W | 38 | 2.04 (2.31 / 0.70 / 2.04) |
| R36Y | 177 | 0.40 (-0.73 / 5.38 / 0.40) |
| R37D | 39 | 4.07 (4.28 / 4.07 / 0.58) |
| R37V | 24 | -0.31 (5.74 / -0.70 / -0.31) |
| W38C | 26 | 0.02 (0.15 / 0.02 / -0.44) |
| W38D | 247 | -2.14 (-2.14 / -2.29 / -1.03) |
| W38E | 251 | -0.87 (-0.08 / -1.88 / -0.87) |
| W38F | 157 | -1.08 (-1.97 / -1.08 / -0.68) |
| W38G | 256 | -1.51 (-1.45 / -1.91 / -1.51) |
| W38H | 206 | -2.91 (-2.36 / -3.79 / -2.91) |
| W38L | 19 | 3.66 (1.66 / 4.85 / 3.66) |
| W38N | 245 | -0.21 (-0.21 / -1.16 / 0.80) |
| W38Q | 406 | -2.14 (-1.89 / -2.14 / -2.30) |
| W38R | 863 | -1.63 (0.50 / -2.11 / -1.63) |
| W38S | 182 | -1.84 (-1.84 / 1.61 / -3.22) |
| W38Y | 803 | 0.94 (0.94 / 0.35 / 0.98) |
| F39A | 359 | -2.53 (-2.60 / -2.53 / -1.47) |
| F39D | 2325 | -1.99 (-2.05 / 0.03 / -1.99) |
| F39G | 374 | -2.32 (-2.32 / -2.46 / -2.05) |
| F39I | 128 | -0.78 (-0.78 / -1.05 / 4.06) |
| F39K | 345 | -1.91 (-2.21 / -1.91 / 1.58) |
| F39N | 29 | 0.19 (0.19 / -1.00 / 4.33) |
| F39Q | 27 | 0.00 (-1.09 / 5.21 / 0.00) |
| F39R | 343 | -1.38 (-1.38 / -1.90 / -0.26) |
| F39S | 2154 | -2.11 (-2.36 / -2.11 / -1.63) |

The opening 7 entries, copied out:

substitution	input reads	median score
L24C	193	-1.24 (-0.52 / -2.31 / -1.24)
L24D	1810	-1.50 (-1.50 / -2.30 / -0.90)
L24E	51	-0.26 (-0.38 / 5.32 / -0.26)
L24F	62	0.64 (0.64 / -0.68 / 3.46)
L24G	406	-0.23 (1.67 / -2.84 / -0.23)
L24Q	32	-1.48 (-2.04 / 4.95 / -1.48)
L24R	300	-2.26 (-2.74 / -2.26 / -1.63)

Positive scores are uncertain; some enriched variants did not exclude APOBEC3G in a separate test. Not every substitution is listed.